System: O=C(Cc1cccs1)N[C@@H]1C(=O)N2C(C(=O)O)=C(/C=C/c3ccc([N+](=O)[O-])cc3[N+](=O)[O-])CS[C@H]12
Test: purified protein
Conditions: pH 7.2; 37.0 °C

For “Rv0309 (Mycobacterium tuberculosis H37Rv)”, which Km is on record?
Its Km is 740 ± 150 µM.

“Rv1723 (Mycobacterium tuberculosis H37Rv)” was tested. Which Km did it give?
The Km was 610 ± 150 µM.

“Rv2257c (Mycobacterium tuberculosis H37Rv)” was tested. Which Km did it give?
Its Km is 1000 ± 200 µM.

From paper doi:10.1101/2025.02.25.640225v1 (biorxiv, 2025)
